Record: PubChem BioAssay AID624099 (ICCB-Longwood, 2012)

Aim: 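Human genes that papillomavirus E2 requires to repress the HPV18 LCR promoter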 (primary screen)
Cells: human C33A cervical carcinoma cells (HPV-negative) stably expressing BPV1 E2 and an HPV18 LCR luciferase reporter
Reagent: siRNA pool against human genes, 40 nM
Time to read-out: 72 h
Detection: 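Per-well luciferase luminescence, z-scored on each plate against the plate mean and SD with control wells left out, then averaged across three replicate plates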
Scale: mean z-score and z-score: higher = stronger reporter signal, weaker E2 silencing
Hit rule: 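Hit if mean z-score reaches 2 and two or more of three replicate z-scores also reach 2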
In all, the deposit lists about 21,000 reagents; shown is a random part of them. In the full data, 497 (2.4%) got an active call. 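Higher z means weaker E2 silencing; only reporter increases were scored, and knock-downs that hurt cell survival may mask genuine repressor factors.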 The numbers tell different reagents against one gene apart. No sequences are given here.

gene	reagent no.	mean z-score	z-score, replicate A	z-score, replicate B	z-score, replicate C	Call
IGFBP7	1	-1.11	-0.47	-1.82	-1.05	inactive
RELA	1	1.19	1.3	1.24	1.03	inactive
LOC387981 (retired record)	1	0.83	0.61	0.95	0.93	inactive
ABCC1	1	1.7	1.49	1.81	1.81	inactive
HSD17B7	1	-0.31	0.09	-0.48	-0.54	inactive
H3C3	1	-1.52	-1.38	-1.55	-1.63	inactive
LRMDA	1	0.26	0.2	0.23	0.36	inactive
ZNF777	1	-0.2	-0.21	-0.11	-0.27	inactive
GUF1	1	0.73	0.59	1.04	0.56	inactive
GPR34	1	0.36	0.32	0.41	0.34	inactive
WNT9A	1	-0.32	-0.21	-0.56	-0.19	inactive
RAB11FIP3	1	0.48	0.4	0.43	0.61	inactive
EXD2	1	0.19	-0.18	0.12	0.64	inactive
LOC253289 (retired record)	1	1.31	1.51	1.16	1.26	inactive
MYH4	1	-2.68	-2.55	-2.97	-2.52	inactive
RIPPLY3	1	1.2	1.09	1.49	1.03	inactive
TAF2	1	-1.59	-1.82	-1.2	-1.74	inactive
LUC7L2	1	0.22	0.47	0.12	0.08	inactive
LDB2	1	-1.28	-1.32	-1.22	-1.29	inactive
CMKLR1	1	0.62	0.76	0.47	0.63	inactive
MANBA	1	-0.19	-0.44	0.1	-0.23	inactive
GLT6D1	1	-0.82	-0.86	-0.63	-0.96	inactive
SERPINF1	1	1.99	2.29	1.85	1.84	inactive
FKBP9P1	1	-1.26	-1.29	-1.19	-1.31	inactive
NLRP9	1	0.45	0.42	0.42	0.51	inactive
LMO7	1	1.49	1.56	1.4	1.5	inactive
IL17RA	1	-0.17	-0.42	-0.04	-0.04	inactive
SMIM14	1	0.9	1.27	0.69	0.74	inactive
PPT1	1	0.11	0.39	-0.07	0	inactive
OR12D2	1	0.41	0.63	0.25	0.34	inactive
DHX40	1	0.79	0.89	0.54	0.95	inactive
OTUD3	1	0.08	0.03	-0.07	0.28	inactive
OTUD3	2	-1.02	-1.13	-1.06	-0.89	inactive
INPP4A	1	0.28	0.3	0.19	0.35	inactive
MED10	1	-0.1	0.08	0.1	-0.49	inactive
DUSP8	1	0.9	0.92	0.98	0.78	inactive
CEBPG	1	-0.65	-0.59	-0.62	-0.73	inactive
SVEP1	1	-1.4	-1.36	-1.48	-1.35	inactive
ZNF462	1	-0.06	0.27	-0.22	-0.22	inactive

Copied from the entries so far, 3 entries:
gene	reagent no.	mean z-score	z-score, replicate A	z-score, replicate B	z-score, replicate C	Call
GPR34	1	0.36	0.32	0.41	0.34	inactive
WNT9A	1	-0.32	-0.21	-0.56	-0.19	inactive
RAB11FIP3	1	0.48	0.4	0.43	0.61	inactive
